Anti-infective test results gathered from many reports (values: NIAID ChemDB through PubChem).

All rows: tests in culture; species: HIV-2; read by: cytopathic effect / MTT; read-out: EC50

ECn: concentration that inhibits the pathogen or its effect by n%.

smiles,strain or isolate,cell line,setting,mutations,result
CCc1c(C(=O)c2cccc3ccccc23)n(COCCOC)c(=O)[nH]c1=O,ROD,MT-4,,,>164 µM
COc1ccc2c(c1)nc1n2C(c2c(F)cccc2F)SC1,ROD,MT-4,,,>7.8 µM
CCOP(=O)(O)COCCn1nnc2c(=O)[nH]c(N)nc21,,MT-4,,,>315 µM
CC(=O)Oc1ccc(/C=C/C(=O)O[C@H](C(=O)O)[C@H](OC(=O)/C=C/c2ccc(OC(C)=O)c(OC(C)=O)c2)C(=O)O)cc1OC(C)=O,ROD,MT-4,,,5 µM
CC(C)=CCN1Cc2cccc3[nH]c(=S)n(c23)C[C@@H]1C,ROD,MT-4,,,>350 µM
CCc1c(C(=O)c2cccc3ccccc23)n(C/C=C/c2ccccc2)c(=O)[nH]c1=O,ROD,MT-4,,,>28.71 µM
Cc1cn([C@H]2C[C@H](N=[N+]=[N-])[C@@H](COC(=O)CCC(=O)OC[C@H]3O[C@@H]4O[C@H]5[C@H](O)[C@@H](O)[C@@H](O[C@H]6[C@H](O)[C@@H](O)[C@@H](O[C@H]7[C@H](O)[C@@H](O)[C@@H](O[C@H]8[C@H](O)[C@@H](O)[C@@H](O[C@H]9[C@H](O)[C@@H](O)[C@@H](O[C@H]%10[C@H](O)[C@@H](O)[C@@H](O[C@H]3[C@H](O)[C@H]4O)O[C@@H]%10CO)O[C@@H]9CO)O[C@@H]8CO)O[C@@H]7CO)O[C@@H]6CO)O[C@@H]5CO)O2)c(=O)[nH]c1=O,ROD,MT-4,,,0.0953 µg/mL
Nc1nc(N2CCOCC2)c2ncn(CCOCP(=O)(O)O)c2n1,ROD,CEM,,,>20 µg/mL
CCCCCCCCCCCCCCCC(=O)Nc1cc(S(=O)(=O)O)cc2cc(S(=O)(=O)O)cc(O)c12,ROD,MT-4,,,30 µM
CCc1c(Sc2cccc3ccccc23)nc(SCC(=O)c2ccccc2)[nH]c1=O,ROD,MT-4,,,>26.39 µM
Nc1ncnc2nnn(CCOCP(=O)(O)O)c12,,MT-4,,,>365 µM
COc1c(O)c(Br)c2c(c1OC)-c1c(c(Br)c(O)c(OC)c1OC)C[C@H](C)[C@H](C)C2,CBL-20,MT-4,,,>18 µM
CCc1c(C(=O)c2cccc3ccccc23)n(Cc2ccccc2)c(=O)[nH]c1=O,ROD,MT-4,,,>33.67 µM
CC(C)Nc1cccnc1N1CCN(C(=O)c2cc3cc(NS(C)(=O)=O)ccc3[nH]2)CC1,EHO,MT-4,,RT-S102L E219D,>47.3 µM
Cc1ccnc2c1NC(=O)c1cccnc1N2C1CC1,ROD,MT-4,5 d,,>1000 µM
CC(C)CN(C[C@@H](O)[C@H](Cc1ccccc1)NC(=O)O[C@H]1CCOC1)S(=O)(=O)c1ccc(N)cc1,EHO Laboratory isolate,MT-2,,,0.53 µM
CCc1c(C(=O)c2cccc3ccccc23)n(CC(=O)OC)c(=O)[nH]c1=O,ROD,MT-4,,,>168 µM
COc1c(O)c(Cl)c2c(c1OC)-c1c(c(Cl)c(O)c(OC)c1OC)C[C@H](C)[C@H](C)C2,CBL-20,MT-4,,,>22 µM
Cc1cn([C@H]2C[C@H](Nc3n[nH]c(N)n3)[C@@H](CO)O2)c(=O)[nH]c1=O,ROD,CEM,,,>100 µg/mL
Fc1cccc(Cl)c1C1SCc2nc3cc(C(F)(F)F)ccc3n21,ROD,MT-4,,,>335 µM
CCCN(C)c1nc(N)nc2c1[nH]c[n+]2C[C@@H](C)OCP(=O)(O)O,ROD,MT-4,,,55.9 ± 14 µg/mL
C1CNCCNCC(CCCC2CNCCNCCCNCCNC2)CNCCNC1,ROD,MT-4,5 d,,2 µM
COc1ccc2c(c1)nc1n2C(c2c(F)cccc2Cl)SC1,ROD,MT-4,,,>1.8 µM
CC(C)(C)NC(=O)[C@@H]1C[C@@H]2CCCC[C@@H]2CN1C[C@@H](O)[C@H](Cc1ccccc1)NC(=O)[C@H](CC(N)=O)NC(=O)c1ccc2ccccc2n1,EHO Laboratory isolate,MT-2,,,0.004 µM
c1cc(CN2CCCNCCNCCCNCC2)ccc1CN1CCCNCCNCCCNCC1,EHO,MT-4,,,0.004 µg/mL
CC(C)[C@H](NC(=O)N(C)Cc1ccccn1)C(=O)N[C@@H](Cc1ccccc1)[C@H](O)[C@H](O)[C@H](Cc1ccccc1)NC(=O)[C@@H](NC(=O)N(C)Cc1ccccn1)C(C)C,MS,MT-4,,,0.24 µM
Cc1c(Sc2ccccc2)n(COCCO)c(=O)[nH]c1=O,ROD,MT-4,,,>405.8 µM
Nc1nc(NCCc2ccccc2)c2ncn(CCOCP(=O)(O)O)c2n1,ROD,MT-4,,,11.9 µg/mL
Cc1cn([C@H]2C[C@H](N=[N+]=[N-])[C@@H](CO)O2)c(=O)[nH]c1=O,EHO,MT-4,,,0.0011 µM
Cc1cn([C@H]2C[C@H](N=[N+]=[N-])[C@@H](COC(=O)CCC(=O)OCC3OC4OC5C(COS(=O)(=O)O)OC(OC6C(COS(=O)(=O)O)OC(OC7C(COS(=O)(=O)O)OC(OC8C(COS(=O)(=O)O)OC(OC9C(COS(=O)(=O)O)OC(OC3C(OS(=O)(=O)O)C4OS(=O)(=O)O)C(OS(=O)(=O)O)C9OS(=O)(=O)O)C(OS(=O)(=O)O)C8OS(=O)(=O)O)C(OS(=O)(=O)O)C7OS(=O)(=O)O)C(OS(=O)(=O)O)C6OS(=O)(=O)O)C(OS(=O)(=O)O)C5OS(=O)(=O)O)O2)c(=O)[nH]c1=O,ROD,MT-4,,,4.63 µg/mL
O=P(O)(O)COCCn1cnc2c(NC3CCCCC3)ncnc21,ROD,CEM,,,>100 µg/mL
CC(=O)c1ccc(C)cc1NC(C(N)=O)c1c(Cl)cccc1Cl,ROD,MT-4,,,85.5 µM
Nc1nc2c(nnn2CCOCP(=O)(O)O)c(=O)[nH]1,,MT-4,,,6.2 µM
CCNc1nc(N(C)C)nc2c1ncn2C[C@@H](C)OCP(=O)(O)O,ROD,CEM,,,>4 µg/mL
O=c1[nH]cnc2c1ncn2[C@H]1CC[C@@H](CO)O1,ROD,MT-4,,,2.71 µM
C[C@H](C[n+]1c[nH]c2c(NCCCCCCCC3CCCCC3)nc(N)nc21)OCP(=O)(O)O,ROD,CEM,,,13 ± 6 µg/mL
Cc1cn([C@H]2C[C@H](N=[N+]=[N-])[C@@H](COC(=O)CCC(=O)OC[C@H]3O[C@@H]4O[C@H]5[C@H](O)[C@@H](O)[C@@H](O[C@H]6[C@H](O)[C@@H](O)[C@@H](O[C@H]7[C@H](O)[C@@H](O)[C@@H](O[C@H]8[C@H](O)[C@@H](O)[C@@H](O[C@H]9[C@H](O)[C@@H](O)[C@@H](O[C@H]3[C@H](O)[C@H]4O)O[C@@H]9CO)O[C@@H]8CO)O[C@@H]7CO)O[C@@H]6CO)O[C@@H]5CO)O2)c(=O)[nH]c1=O,ROD,MT-4,,,0.036 µg/mL
CCC(C)Nc1nc(N)nc2c1[nH]c[n+]2C[C@@H](C)OCP(=O)(O)O,ROD,CEM,,,>100 µg/mL
C1CNCCNCC(CCC2CNCCNCCCNCCNC2)CNCCNC1,ROD,MT-4,5 d,,3.4 µM
C1CNCCNCCCN[C@@H]([C@H]2CNCCCNCCNCCCN2)CNC1,ROD,MT-4,,,0.62 µg/mL
CC(C)(C)NC(=O)[C@@H]1CN(Cc2cccnc2)CCN1C[C@@H](O)C[C@@H](Cc1ccccc1)C(=O)N[C@H]1c2ccccc2C[C@H]1O,EHO Laboratory isolate,MT-2,,,0.01 µM
Nc1nc2nn(CCOCP(=O)(O)O)nc2c(=O)[nH]1,,MT-4,,,>315 µM
Cc1cc(C)nc(NS(=O)(=O)c2ccc(N=C3C(=O)Nc4ccc(Cl)cc43)cc2)n1,ROD,MT-4,,,118 µg/mL
CN(C)c1cccc2c(S(=O)(=O)N3CCSC3c3cccnc3)cccc12,ROD,MT-4,5 d,,>2000 µM
C/C=C(\C)CC/C=C(\C)CC/C=C(\C)CC/C=C(\C)CC/C=C(\C)CC/C=C(\C)CC/C=C(\C)CC/C=C(\C)CC/C=C(\C)Cn1c(C(=O)c2cccc3ccccc23)c(C(C)C)c(=O)[nH]c1=O,ROD,MT-4,,,>72.01 µM
Cc1cc(C)nc(NS(=O)(=O)c2ccc(N=C3C(=O)Nc4ccc(Br)cc43)cc2)n1,ROD,MT-4,,,78.2 µg/mL
CCOCn1c(Sc2cc(C)cc(C)c2)c(CC)c(=O)[nH]c1=O,ROD,MT-4,,,>100 µM
Nc1ccn([C@H]2CC[C@@H](CO)O2)c(=O)n1,ROD,MT-4,,,0.118 µM
C1CNCCNCC(C2CNCCNCCCNCCNC2)CNCCNC1,ROD,MT-4,,,>200 µg/mL
Fc1ccc2nc3n(c2c1)C(c1c(F)cccc1F)SC3,ROD,MT-4,,,>162.6 µM
CCOCn1c(Sc2cc(C)cc(C)c2)c(CC)c(=O)[nH]c1=S,ROD,MT-4,,,>100 µM
O=S(=O)(O)c1cc(NS(=O)(=O)c2ccc(-c3ccc(S(=O)(=O)Nc4cc(S(=O)(=O)O)c5cccc(S(=O)(=O)O)c5c4)cc3)cc2)cc2c(S(=O)(=O)O)cccc12,ROD,MT-4,,,61 µM
Fc1ccc2c(c1)nc1n2C(c2c(F)cccc2Cl)SC1,ROD,MT-4,,,>34.7 µM
COc1c(O)c(I)c2c(c1OC)-c1c(c(I)c(O)c(OC)c1OC)C[C@H](C)[C@H](C)C2,ROD,MT-4,,,>16 µM
CCc1c(Sc2cccc3ccccc23)nc(SCC(=O)c2ccc(Cl)cc2)[nH]c1=O,ROD,MT-4,,,>25.5 µM
CCCCNc1nc(N)nc2c1ncn2CCOCP(=O)(O)O,ROD,MT-4,,,2.3 µg/mL
Cc1cc(C)nc(NS(=O)(=O)c2ccc(N=C3C(=O)Nc4ccccc43)cc2)n1,ROD,MT-4,,,41.5 µg/mL
CN(C)CCNc1nc(N)nc2c1ncn2CCOCP(=O)(O)O,ROD,CEM,,,2 µg/mL
Cc1cccc2nc3n(c12)C(c1c(F)cccc1F)SC3,ROD,MT-4,,,>21.5 µM
COC(=O)C(Cc1ccccc1)NC(=O)[C@@H](NC(=O)[C@@H](C[C@H](O)[C@H](CC1CCCCC1)NC(=O)[C@@H](NC(=O)[C@H](Cc1ccccc1)CS(=O)(=O)C(C)(C)C)C(C)C)C(C)C)C(C)C,EHO,MT-4,,RT-S102L E219D,21.4 µM
c1nc[nH]n1,ROD,CEM,,,>100 µg/mL

Repeating the final 6 entries:

smiles,strain or isolate,cell line,setting,mutations,result
CCCCNc1nc(N)nc2c1ncn2CCOCP(=O)(O)O,ROD,MT-4,,,2.3 µg/mL
Cc1cc(C)nc(NS(=O)(=O)c2ccc(N=C3C(=O)Nc4ccccc43)cc2)n1,ROD,MT-4,,,41.5 µg/mL
CN(C)CCNc1nc(N)nc2c1ncn2CCOCP(=O)(O)O,ROD,CEM,,,2 µg/mL
Cc1cccc2nc3n(c12)C(c1c(F)cccc1F)SC3,ROD,MT-4,,,>21.5 µM
COC(=O)C(Cc1ccccc1)NC(=O)[C@@H](NC(=O)[C@@H](C[C@H](O)[C@H](CC1CCCCC1)NC(=O)[C@@H](NC(=O)[C@H](Cc1ccccc1)CS(=O)(=O)C(C)(C)C)C(C)C)C(C)C)C(C)C,EHO,MT-4,,RT-S102L E219D,21.4 µM
c1nc[nH]n1,ROD,CEM,,,>100 µg/mL

Rows are shuffled and stem from different studies. Blank or dashed fields: not listed here.